The source of these data is patent US20220356230A1.

Where “and” joins values, the source holds several entries; their conditions need not be identical. Identical values can stand only once.

For assay [1], the target named is SARS-COV-2-S RBD extracellular domain expressed with a C-terminal myc-myc-hexahistidine (SARS-COV-2 RBD-MMH) (SARS-CoV-2).
Assay [2] addresses SARS-CoV-2-S RBD extracellular domain expressed with a C-terminal myc-myc-hexahistidine tag (SARS-COV-2 RBD-MMH) (SARS-CoV-2).

For the substance Isotype Control (antibody), the 90 nM RBD.mmh Bound (RU) in assay [1] is 4 RU and 9 RU.
In assay [2], mAb10933 yielded a 90 nM RBD · mmh Bound (RU) of 119 RU.
